We go through 1 substance from patent US20170128489A1 (priority 2014, published 2017).

As a reminder, the EC50 is the concentration needed to bring the measured effect to its halfway point.

The test relates to influenza A (S31N), A/California/07/2009. In words: Miniplaque assay (Part 2) in MDCK cells. The following applies: calculated from the percent block data. The class given is cell-based, Influenza A virus.

In the case of Copper pinanamine imidazole, the EC50 was 19.9 µM.
